From patent US10414808B2 (priority 2012, dated 2019) come the findings set out here.

Protein sequences, listed by entry. Tags and fused reporters are not part of them.
UniProt Q15858, whole entry W1161R, looked up: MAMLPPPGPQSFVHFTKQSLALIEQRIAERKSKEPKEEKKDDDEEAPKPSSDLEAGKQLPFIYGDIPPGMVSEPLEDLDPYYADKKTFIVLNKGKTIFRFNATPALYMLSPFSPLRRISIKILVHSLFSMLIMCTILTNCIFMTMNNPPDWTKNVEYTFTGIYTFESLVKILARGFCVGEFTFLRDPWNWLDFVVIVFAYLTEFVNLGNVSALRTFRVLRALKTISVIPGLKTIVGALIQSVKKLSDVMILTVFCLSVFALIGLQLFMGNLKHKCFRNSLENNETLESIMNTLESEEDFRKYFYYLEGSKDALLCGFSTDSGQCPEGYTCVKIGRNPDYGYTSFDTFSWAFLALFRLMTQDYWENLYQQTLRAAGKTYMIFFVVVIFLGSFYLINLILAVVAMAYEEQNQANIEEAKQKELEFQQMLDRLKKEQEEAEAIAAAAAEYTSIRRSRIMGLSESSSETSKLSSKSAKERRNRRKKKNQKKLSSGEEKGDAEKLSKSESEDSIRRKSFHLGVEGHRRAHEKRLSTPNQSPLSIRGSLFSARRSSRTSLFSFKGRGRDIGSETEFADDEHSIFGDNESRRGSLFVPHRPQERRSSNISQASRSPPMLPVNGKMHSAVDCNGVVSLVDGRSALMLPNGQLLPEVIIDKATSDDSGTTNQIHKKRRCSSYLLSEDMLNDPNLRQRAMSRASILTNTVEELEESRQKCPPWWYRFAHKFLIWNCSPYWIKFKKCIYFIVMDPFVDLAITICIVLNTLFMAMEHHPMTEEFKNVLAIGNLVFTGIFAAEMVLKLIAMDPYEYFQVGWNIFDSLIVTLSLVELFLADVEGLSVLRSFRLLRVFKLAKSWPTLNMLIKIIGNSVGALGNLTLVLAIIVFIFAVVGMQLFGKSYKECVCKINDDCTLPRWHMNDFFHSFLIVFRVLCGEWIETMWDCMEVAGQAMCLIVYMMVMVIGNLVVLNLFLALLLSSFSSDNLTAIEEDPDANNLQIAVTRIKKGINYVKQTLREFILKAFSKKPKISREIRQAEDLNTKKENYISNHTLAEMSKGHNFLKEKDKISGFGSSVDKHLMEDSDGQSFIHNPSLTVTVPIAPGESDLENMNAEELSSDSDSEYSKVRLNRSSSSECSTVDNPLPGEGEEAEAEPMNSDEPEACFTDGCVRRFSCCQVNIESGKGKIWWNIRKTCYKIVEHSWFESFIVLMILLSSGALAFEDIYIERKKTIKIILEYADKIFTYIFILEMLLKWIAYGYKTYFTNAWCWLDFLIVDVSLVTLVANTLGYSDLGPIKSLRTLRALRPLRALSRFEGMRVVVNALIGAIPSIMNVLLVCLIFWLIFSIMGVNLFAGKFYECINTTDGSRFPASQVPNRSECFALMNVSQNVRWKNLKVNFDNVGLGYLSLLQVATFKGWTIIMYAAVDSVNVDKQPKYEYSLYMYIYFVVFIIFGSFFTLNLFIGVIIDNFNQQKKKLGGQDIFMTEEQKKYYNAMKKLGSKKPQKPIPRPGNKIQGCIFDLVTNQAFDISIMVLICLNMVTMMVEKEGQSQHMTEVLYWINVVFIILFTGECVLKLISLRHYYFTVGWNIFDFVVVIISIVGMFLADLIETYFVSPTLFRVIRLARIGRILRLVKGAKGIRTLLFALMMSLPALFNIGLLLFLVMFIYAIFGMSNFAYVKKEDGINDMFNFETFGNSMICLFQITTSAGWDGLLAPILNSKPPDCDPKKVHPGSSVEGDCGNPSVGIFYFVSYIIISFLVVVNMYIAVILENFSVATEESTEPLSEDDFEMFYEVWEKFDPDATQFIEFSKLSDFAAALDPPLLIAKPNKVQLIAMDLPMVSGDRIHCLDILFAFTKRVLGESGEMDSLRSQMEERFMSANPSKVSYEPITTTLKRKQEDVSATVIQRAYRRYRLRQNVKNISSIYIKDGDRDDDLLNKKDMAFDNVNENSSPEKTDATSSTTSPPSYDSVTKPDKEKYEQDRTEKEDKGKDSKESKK
UniProt Q99250, whole entry, looked up: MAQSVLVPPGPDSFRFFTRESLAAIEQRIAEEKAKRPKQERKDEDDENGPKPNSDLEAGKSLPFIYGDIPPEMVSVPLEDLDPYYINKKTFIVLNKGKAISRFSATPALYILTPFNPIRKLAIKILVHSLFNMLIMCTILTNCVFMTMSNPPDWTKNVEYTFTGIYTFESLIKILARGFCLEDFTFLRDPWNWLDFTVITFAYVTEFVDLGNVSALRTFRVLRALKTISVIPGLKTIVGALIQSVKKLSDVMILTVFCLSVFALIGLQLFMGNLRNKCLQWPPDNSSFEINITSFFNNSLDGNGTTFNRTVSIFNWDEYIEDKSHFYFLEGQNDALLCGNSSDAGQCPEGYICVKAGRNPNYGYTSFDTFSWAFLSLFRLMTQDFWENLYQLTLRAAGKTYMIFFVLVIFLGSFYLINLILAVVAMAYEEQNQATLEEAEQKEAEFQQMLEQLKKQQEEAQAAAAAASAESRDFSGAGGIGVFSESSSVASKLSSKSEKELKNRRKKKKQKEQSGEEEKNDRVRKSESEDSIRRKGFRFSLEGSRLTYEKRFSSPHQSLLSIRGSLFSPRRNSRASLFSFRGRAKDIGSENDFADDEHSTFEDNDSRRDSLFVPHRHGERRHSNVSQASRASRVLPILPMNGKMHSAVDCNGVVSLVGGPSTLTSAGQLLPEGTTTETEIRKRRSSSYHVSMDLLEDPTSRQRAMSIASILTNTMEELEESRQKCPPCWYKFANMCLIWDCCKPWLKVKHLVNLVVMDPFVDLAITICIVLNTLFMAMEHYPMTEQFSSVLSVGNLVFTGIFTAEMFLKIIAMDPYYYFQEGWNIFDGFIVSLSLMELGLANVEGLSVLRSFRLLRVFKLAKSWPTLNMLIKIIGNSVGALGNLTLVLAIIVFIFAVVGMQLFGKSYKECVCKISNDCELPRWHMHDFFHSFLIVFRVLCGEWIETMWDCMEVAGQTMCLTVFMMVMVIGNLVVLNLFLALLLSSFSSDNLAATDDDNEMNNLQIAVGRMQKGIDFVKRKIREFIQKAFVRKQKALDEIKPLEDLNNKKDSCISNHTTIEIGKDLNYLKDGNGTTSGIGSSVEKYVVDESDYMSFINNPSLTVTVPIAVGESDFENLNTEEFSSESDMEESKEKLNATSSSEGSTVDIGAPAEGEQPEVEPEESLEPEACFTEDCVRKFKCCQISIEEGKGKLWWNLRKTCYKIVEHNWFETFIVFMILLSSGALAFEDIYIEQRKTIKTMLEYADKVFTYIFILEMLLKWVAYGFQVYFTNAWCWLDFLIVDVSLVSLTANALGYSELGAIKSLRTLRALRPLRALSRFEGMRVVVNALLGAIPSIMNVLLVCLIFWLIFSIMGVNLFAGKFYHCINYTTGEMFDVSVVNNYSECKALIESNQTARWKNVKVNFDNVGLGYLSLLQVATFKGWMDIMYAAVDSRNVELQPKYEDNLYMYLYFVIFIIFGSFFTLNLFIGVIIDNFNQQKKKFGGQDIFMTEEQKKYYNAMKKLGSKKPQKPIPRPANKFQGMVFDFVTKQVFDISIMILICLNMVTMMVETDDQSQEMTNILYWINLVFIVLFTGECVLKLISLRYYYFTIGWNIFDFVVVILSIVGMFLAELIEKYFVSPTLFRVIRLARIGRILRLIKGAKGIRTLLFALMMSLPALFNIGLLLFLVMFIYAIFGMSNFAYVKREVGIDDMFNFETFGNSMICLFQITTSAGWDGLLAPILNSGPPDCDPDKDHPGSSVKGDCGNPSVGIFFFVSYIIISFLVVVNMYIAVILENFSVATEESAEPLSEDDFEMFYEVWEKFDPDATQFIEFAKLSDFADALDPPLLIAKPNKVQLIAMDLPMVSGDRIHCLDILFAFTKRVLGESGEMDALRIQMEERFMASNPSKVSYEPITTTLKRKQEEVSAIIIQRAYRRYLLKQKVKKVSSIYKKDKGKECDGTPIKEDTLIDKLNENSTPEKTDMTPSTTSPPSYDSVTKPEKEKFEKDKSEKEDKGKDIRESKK
UniProt Q9UQD0, whole entry, looked up: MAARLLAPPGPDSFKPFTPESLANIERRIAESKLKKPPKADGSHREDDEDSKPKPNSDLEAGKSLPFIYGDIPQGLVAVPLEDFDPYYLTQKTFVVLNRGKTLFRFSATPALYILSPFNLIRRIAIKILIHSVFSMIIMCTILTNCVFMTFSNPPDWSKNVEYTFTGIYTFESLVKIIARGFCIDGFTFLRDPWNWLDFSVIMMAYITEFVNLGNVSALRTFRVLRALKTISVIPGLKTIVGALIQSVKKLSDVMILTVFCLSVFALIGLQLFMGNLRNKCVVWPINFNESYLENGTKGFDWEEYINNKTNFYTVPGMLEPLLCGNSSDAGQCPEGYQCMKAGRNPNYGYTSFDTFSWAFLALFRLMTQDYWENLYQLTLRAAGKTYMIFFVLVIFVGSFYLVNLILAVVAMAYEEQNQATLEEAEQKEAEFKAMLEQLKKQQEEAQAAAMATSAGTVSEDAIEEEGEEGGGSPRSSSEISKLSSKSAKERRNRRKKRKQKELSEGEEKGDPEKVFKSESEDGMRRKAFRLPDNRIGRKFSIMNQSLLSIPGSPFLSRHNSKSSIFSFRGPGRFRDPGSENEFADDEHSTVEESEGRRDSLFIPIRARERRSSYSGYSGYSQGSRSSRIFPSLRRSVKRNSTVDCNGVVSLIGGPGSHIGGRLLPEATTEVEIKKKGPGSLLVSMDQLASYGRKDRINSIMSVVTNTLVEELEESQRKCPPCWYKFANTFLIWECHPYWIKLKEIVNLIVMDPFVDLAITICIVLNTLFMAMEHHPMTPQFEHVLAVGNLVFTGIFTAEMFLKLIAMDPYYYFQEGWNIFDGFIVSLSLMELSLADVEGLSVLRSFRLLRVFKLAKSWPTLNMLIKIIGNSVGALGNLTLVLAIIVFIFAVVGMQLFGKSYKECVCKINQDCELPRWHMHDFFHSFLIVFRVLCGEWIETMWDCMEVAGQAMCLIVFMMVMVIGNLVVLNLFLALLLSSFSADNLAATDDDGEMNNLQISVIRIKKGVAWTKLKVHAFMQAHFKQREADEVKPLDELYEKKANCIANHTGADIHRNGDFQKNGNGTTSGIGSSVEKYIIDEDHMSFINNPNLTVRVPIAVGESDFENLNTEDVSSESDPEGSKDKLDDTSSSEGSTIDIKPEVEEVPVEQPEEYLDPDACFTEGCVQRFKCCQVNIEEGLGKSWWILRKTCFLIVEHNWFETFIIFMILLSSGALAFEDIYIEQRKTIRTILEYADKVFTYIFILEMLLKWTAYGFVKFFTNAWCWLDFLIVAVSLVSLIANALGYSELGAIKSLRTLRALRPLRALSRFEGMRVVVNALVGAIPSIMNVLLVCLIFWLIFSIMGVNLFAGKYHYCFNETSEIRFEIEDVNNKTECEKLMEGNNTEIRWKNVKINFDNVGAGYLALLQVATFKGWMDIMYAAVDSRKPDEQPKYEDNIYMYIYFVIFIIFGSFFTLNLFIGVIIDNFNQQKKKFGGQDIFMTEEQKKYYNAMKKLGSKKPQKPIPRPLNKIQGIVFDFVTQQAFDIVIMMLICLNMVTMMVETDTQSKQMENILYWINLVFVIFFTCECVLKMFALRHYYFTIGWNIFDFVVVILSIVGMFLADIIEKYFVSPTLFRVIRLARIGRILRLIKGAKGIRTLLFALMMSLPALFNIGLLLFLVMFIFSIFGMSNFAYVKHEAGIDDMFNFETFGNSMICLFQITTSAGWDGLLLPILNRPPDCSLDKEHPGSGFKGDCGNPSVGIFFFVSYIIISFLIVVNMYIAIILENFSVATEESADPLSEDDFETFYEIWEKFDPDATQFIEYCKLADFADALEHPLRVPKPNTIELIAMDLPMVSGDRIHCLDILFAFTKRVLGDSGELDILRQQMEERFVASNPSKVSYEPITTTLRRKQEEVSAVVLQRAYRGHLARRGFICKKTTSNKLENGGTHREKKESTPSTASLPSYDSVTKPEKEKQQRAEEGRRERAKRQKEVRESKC

Test [1] concerns rat model of nociceptive pain. The experiment in a line: Randall-Selitto paw pressure test after local dorsal hind paw injection. The format is in vivo.
Test [2] has as its target T1, hNav1.7 (Homo sapiens, UniProt Q15858, W1161R). As to the kind of experiment: hNav1.7 IC50 (nM) | QP. The note with it: read-out: hNav1.7 IC50 (nM) | QP.
Test [3] addresses hNav1.2 (Homo sapiens, UniProt Q99250). As to the kind of experiment: hNav1.2 IC50 (nM) | QP. The note with it: read-out: hNav1.2 IC50 (nM) | QP.
Test [4] deals with T2, hNav1.6 (Homo sapiens, UniProt Q9UQD0). The experiment in a line: hNav1.6 IC50 (nM) | QP. Particulars: read-out: hNav1.6 IC50 (nM) | QP.
Test [5] deals with T1, hNav1.7. As to the kind of experiment: hNav1.7 IC50 (nM) | TETRA. The note with it: read-out: hNav1.7 IC50 (nM) | TETRA.
Test [6] addresses hNav1.1 (Homo sapiens, UniProt P35498). The experiment in a line: hNav1.1 IC50 (nM) | QP. Particulars: read-out: hNav1.1 IC50 (nM) | QP.
The target of test [7] is T2, hNav1.6. The experiment in a line: hNav1.6 IC50 (nM) | TETRA. The note with it: read-out: hNav1.6 IC50 (nM) | TETRA.

Broadly, the IC50 is the concentration that inhibits the measured activity by half.

Take CCNCSSKWCRDHSRCC-NH2: the “paw pressure threshold vs vehicle-treated animals” value in test [1] (3 nmoles s.c. dorsal hind paw) and in test [1] (30 nmoles s.c. dorsal hind paw) was “did not reach statistical significance” in each case. In addition, in test [1] (Pre and 5-60 min), the “AUC of gram thresholds (mean vehicle AUC subtracted), comparison between dose groups” value is “no significant difference”.
For `CC[C@H](C)[C@H](NC(=O)[C@H](CO)NC(=O)[C@H](Cc1c[nH]c2ccccc12)NC(=O)[C@H](CCCCN)NC(=O)[C@@H]1CSSC[C@@H]2NC(=O)[C@H](CCC(N)=O)NC(=O)[C@H](CC(=O)O)NC(=O)[C@H](CC(N)=O)NC(=O)[C@H](CO)NC(=O)[C@@H]3CCCN3C(=O)[C@H](CC(N)=O)NC(=O)[C@@H]3CSSC[C@H](NC(=O)[C@H](C(C)C)NC(=O)[C@H](CC(C)C)NC(=O)[C@H](CCCCN)NC(=O)[C@H](CO)NC(=O)[C@H](CO)NC(=O)[C@H](CCCCN)NC(=O)[C@H](CSSC[C@H](NC(=O)[C@H](CC(N)=O)NC(=O)[C@@H]4CCCN4C(=O)CN)C(=O)N[C@@H](CC(C)C)C(=O)N[C@@H](CCCNC(=N)N)C(=O)N[C@@H]([C@@H](C)CC)C(=O)N[C@@H](Cc4ccccc4)C(=O)N[C@@H](CCCCN)C(=O)N[C@@H](C)C(=O)N3)NC2=O)C(=O)N[C@@H](CO)C(=O)N[C@@H](CC(=O)O)C(=O)N[C@@H](CCCCN)C(=O)N[C@@H]([C@@H](C)O)C(=O)N[C@@H](CCCNC(=N)N)C(=O)N[C@@H](Cc2c[nH]c3ccccc23)C(=O)N1)C(=O)NCC(=O)N[C@@H](CCCCN)C(=O)O`, the IC50 in test [2] worked out at 8 nM.
Regarding `CC[C@H](C)[C@@H]1NC(=O)[C@H](CCC(=O)O)NC(=O)[C@H](CC(C)C)NC(=O)[C@@H](NC(=O)[C@H](CC(N)=O)NC(=O)[C@@H]2CCCN2C(=O)CN)CSSC[C@@H]2NC(=O)[C@@H]3CSSC[C@@H](C(=O)N[C@@H](CCCCN)C(=O)N[C@@H](Cc4ccc(O)cc4)C(=O)N[C@@H](CO)C(=O)N[C@H](C(=O)N[C@H](C(=O)N[C@@H](CCCCN)C(=O)O)[C@@H](C)CC)[C@@H](C)CC)NC(=O)[C@H](Cc4c[nH]c5ccccc45)NC(=O)[C@H](CCCNC(=N)N)NC(=O)[C@H]([C@@H](C)O)NC(=O)[C@H](CCCCN)NC(=O)[C@H](CCCCN)NC(=O)[C@H](CO)NC(=O)[C@H](CSSC[C@H](NC(=O)[C@H](C)NC(=O)[C@H](CCCCN)NC(=O)[C@H](Cc4ccccc4)NC1=O)C(=O)N[C@@H](CC(N)=O)C(=O)N1CCC[C@H]1C(=O)N[C@@H](CO)C(=O)N[C@@H](CC(N)=O)C(=O)N[C@@H](CC(=O)O)C(=O)N[C@@H](CCC(N)=O)C(=O)N3)NC(=O)[C@H](C(C)C)NC(=O)[C@H](CC(C)C)NC(=O)[C@H](CCCCN)NC(=O)[C@H](CC(N)=O)NC(=O)[C@H](CO)NC(=O)[C@H](CCCCN)NC2=O`, the IC50 in test [3] turned out to be 567 nM; in test [4], 202 nM; in test [5] it was 208 nM; in test [2] it was 32 nM.
As for `CC[C@H](C)[C@H](NC(=O)[C@H](CO)NC(=O)[C@H](Cc1c[nH]c2ccccc12)NC(=O)[C@H](CCCCN)NC(=O)[C@@H]1CSSC[C@@H]2NC(=O)[C@H](CCC(N)=O)NC(=O)[C@H](CC(=O)O)NC(=O)[C@H](CC(N)=O)NC(=O)[C@H](CO)NC(=O)[C@@H]3CCCN3C(=O)[C@H](CC(N)=O)NC(=O)[C@@H]3CSSC[C@H](NC(=O)[C@H](C(C)C)NC(=O)[C@H](CC(C)C)NC(=O)[C@H](CCCCN)NC(=O)[C@H](CO)NC(=O)[C@H](CO)NC(=O)[C@H](CCCCN)NC(=O)[C@H](CSSC[C@H](NC(=O)[C@H](CC(N)=O)NC(=O)[C@@H]4CCCN4C(=O)CN)C(=O)N[C@@H](CC(C)C)C(=O)N[C@@H](CCCNC(=N)N)C(=O)N[C@@H]([C@@H](C)CC)C(=O)N[C@@H](Cc4ccccc4)C(=O)N[C@@H](CCCCN)C(=O)N[C@@H](C)C(=O)N3)NC2=O)C(=O)N[C@@H](CO)C(=O)N[C@@H](CCCNC(=N)N)C(=O)N[C@@H](Cc2c[nH]cn2)C(=O)N[C@@H]([C@@H](C)O)C(=O)N[C@@H](CCCNC(=N)N)C(=O)N[C@@H](Cc2c[nH]c3ccccc23)C(=O)N1)C(=O)NCC(=O)N[C@@H](CCCCN)C(=O)O`, the IC50 in test [2] turned out to be 8 nM.
For the molecule `CC[C@H](C)[C@@H]1NC(=O)[C@H](CCC(=O)O)NC(=O)[C@H](CC(C)C)NC(=O)[C@@H](NC(=O)[C@H](CC(N)=O)NC(=O)[C@@H]2CCCN2C(=O)CN)CSSC[C@@H]2NC(=O)[C@@H]3CSSC[C@@H](C(=O)N[C@@H](CCCCN)C(=O)N[C@@H](Cc4ccc(O)cc4)C(=O)N[C@@H](CO)C(=O)N[C@H](C(=O)N[C@H](C(=O)N[C@@H](CCCCN)C(=O)O)[C@@H](C)CC)[C@@H](C)CC)NC(=O)[C@H](Cc4c[nH]c5ccccc45)NC(=O)[C@H](CCCNC(=N)N)NC(=O)[C@H]([C@@H](C)O)NC(=O)[C@H](CCCCN)NC(=O)[C@H](CCCCN)NC(=O)[C@H](CO)NC(=O)[C@H](CSSC[C@H](NC(=O)[C@H](C)NC(=O)[C@H](CCCCN)NC(=O)[C@H](Cc4ccccc4)NC1=O)C(=O)N[C@@H](CC(N)=O)C(=O)N1CCC[C@H]1C(=O)N[C@@H](CO)C(=O)N[C@@H](CC(N)=O)C(=O)N[C@@H](CC(=O)O)C(=O)N[C@@H](CCC(N)=O)C(=O)N3)NC(=O)[C@H](C(C)C)NC(=O)[C@H](CC(C)C)NC(=O)[C@H](Cc1ccccc1)NC(=O)[C@H](CO)NC(=O)[C@H](CO)NC(=O)[C@H](CCCCN)NC2=O`, the IC50 in test [6] was 81 nM; in test [3] it was 601 nM; in test [7] it was above 1000 nM; in test [4] it was 267 nM; in test [5] it was 145 nM; in test [2], 17 nM.
